Measured values reported in patent EP1143976B9, “BETA-D-2', 3' -DIDEHYDRO-2', 3' -DIDEOXY-5-FLUO[…] USE IN THE TREATMENT OF HIV INFECTIONS” (priority 1999, dated 2000).
Where two headings read alike, the source gives them in different places. Some results come without the dose or concentration used.

Tested on: HIV-1 in acutely infected human PBM cells
Assay: Median effect and combination index analysis in acutely infected human PBM cells (Day 6)
Assay type: cell-based
Source text: Table 5 provides the median effective concentration and combinations index (C.I.) values for D-D4FC alone and in combination with AZT and D4T in acutely infected human PBM cells (Day6). Table 6 describes the effect of β-D and β-L-D4FC against HIV-1 and cloned viruses I human PBM cells.

[1] = slope ± S.E. of the median effect plot, human PBM cells, Day 6

SMILES	m±SE	m±SE [1]
Cc1cn([C@H]2C[C@H](N=[N+]=[N-])[C@@H](CO)O2)c(=O)[nH]c1=O [AZT, 3'-azido-3'-deoxythymidine]	0.96±0.17	
Cc1cn([C@H]2C=C[C@@H](CO)O2)c(=O)[nH]c1=O [D4T, 2',3'-dideoxy-2',3'-didehydrothymidine]		0.82±0.16
Nc1nc(=O)n([C@H]2C=C[C@@H](CO)O2)cc1F [D-D4FC, β-2',3'-didehydro-2',3'-dideoxy-5-fluorocytidine]		0.95±0.17
